Here are results for 10 molecules from patent US20240122867A1, “CORONAL PROTEIN-COATED NANOPARTICLES AND USES THEREOF” (UNIVERSITY OF CENTRAL FLORIDA RESEARCH FOUNDATION, INC., priority 2021, published 2024).

The labels stand for the following.
B1: BPI fold-containing family A member 2 (protein, UniProt P07743 21-235, looked up)
BPI fold-containing family A …: LLGELGSAVNNLKILNPPSEAVPQNLNLDVELLQQATSWPLAKNSILETLNTADLGNLKSFTSLNGLLLKINNLKVLDFQAKLSSNGNGIDLTVPLAGEASLVLPFIGKTVDISVSLDLINSLSIKTNAQTGLPEVTIGKCSSNTDKISISLLGRRLPIINSILDGVSTLLTSTLSTVLQNFLCPLLQYVLSTLNPSVLQGLLSNLLAGQVQLAL
B2: Apolipoprotein D (protein, UniProt P51910 21-189, looked up)
Apolipoprotein D: QNFHLGKCPSPPVQENFDVKKYLGRWYEIEKIPASFEKGNCIQANYSLMENGNIEVLNKELSPDGTMNQVKGEAKQSNVSEPAKLEVQFFPLMPPAPYWILATDYENYALVYSCTTFFWLFHVDFVWILGRNPYLPPETITYLKDILTSNGIDIEKMTTTDQANCPDFL
B3: Ceruloplasmin (protein, UniProt Q61147 20-1061, looked up)
Ceruloplasmin: RDKHYFIGITEAVWDYASGTEEKKLISVDTEQSNFYLQNGPDRIGRKYKKALYFEYTDGTFSKTIDKPAWLGFLGPVIKAEVEDKVYVHLKNLASRIYTFHAHGVTYTKEYEGAVYPDNTTDFQRADDKVLPGQQYVYVLHANEPSPGEGDSNCVTRIYHSHVDAPKDIASGLIGPLILCKKGSLYKEKEKNIDQEFVLMFSVVDENLSWYLEDNIKTFCSEPEKVDKDNEDFQESNRMYSINGYTFGSLPGLSMCAADRVKWYLFGMGNEVDVHSAFFHGQALTSRNYQTDIINLFPATLIDAYMVAQNPGVWMLSCQNLNHLKAGLQAFFQVRDCNKPSPEDNIQDRHVRHYYIAAEEVIWNYAPSGTDIFTGENLTALESDSRVFFEQGATRIGGSYKKMAYREYTDGSFTNRKQRGPDEEHLGILGPVIWAEVGDTIKVTFHNKGQHPLSIQPMGVSFTAENEGTYYGPPGRSSQQAASHVAPKETFTYEWTVPKEMGPTYADPVCLSKMYYSGVDPTKDIFTGLIGPMKICKKGSLLADGRQKDVDKEFYLFPTVFDENESLLLDDNIRMFTTAPDQVDKEDEDFQESNKMHSMNGFMYGNQPGLNMCLGESIVWYLFSAGNEADVHGIYFSGNTYLSKGERRDTANLFPHKSLTLLMNPDTKGTFDVECLTTDHYTGGMKQKYTVNQCQRQFEDFTVYLGERTYYVAAVEVEWDYSPSRAWEKELHHLQEQNVSNVFLDKEEFFIGSKYKKVVYRQFTDSSFREQVKRRAEDEHLGILGPPIHANVGDKVKVVFKNMATRPYSIHAHGVKTESSTVVPTLPGEVRTYTWQIPERSGAGREDSACIPWAYYSTVDRVKDLYSGLIGPLIVCRKSYVKVFSPKKKMEFFLLFLVFDENESWYLDDNIKTYSEHPEKVNKDNEEFLESNKMHAINGKMFGNLQGLTMHVKDEVNWYVMGMGNEIDLHTVHFHGHSFQYKHRGVYSSDVFDLFPGTYQTLEMFPQTPGTWLLHCHVTDHVHAGMATTYTVLPVEQETKSG
B4: Apolipoprotein C-IV (protein, UniProt P34928 27-88, looked up)
Apolipoprotein C-I: APDLSGTLESIPDKLKEFGNTLEDKARAAIEHIKQKEILTKTRAWFSEAFGKVKEKLKTTFS
B5: Cluster of Murinoglobulin-1 (protein, UniProt P28665 28-1476, looked up)
Murinoglobulin-1: DSKYMVLVPSQLYTETPEKICLHLYQLNETVTVTASLVSQSGRKNLFDELVLDKDLFQCVSFIIPRLSSSDEEDFLYVDIKGPTHEFSKRKAVLVKNKESVVFVQTDKPVYKPGQSVKFRVVSMDKMLRPLNELLPLAYIEDPKKNRIMQWRDIKTENGLKQMSFSLAAEPIQGPYKIVVHKESGEKEEHSFTVMEFVLPRFNVDLKVPNAMSVNDEVLSVTACGKYTYGKPVPGHVKINVCRETETGCREVNSQLDNNGCSTQEVNITELQSKKRNYEVQLFHVNATVTEEGTGLEFSRSGTTKIERITNKLIFLKADSHFRHGIPFFVKVRLVDIKGDPIPNEKVFIKAQELSYTSATTTDQHGLAEFSIDTTCISGSSLHIKVNHKEEDSCSYFYCMEERHASAKHVAYAVYSLSKSYIYLDTETSSILPCNQIHTVQAHFILKGDLGVLKELIFYYLVMAQGSIIQTGNHTHQVEPGEAPVKGKFALEIPVEFSMVPMAKMLIYTILPDGEVIADSVNFEIEKCLRNKVDLRFSTSQSLPASQTRLQVTASPQSLCGLRAVDQSVLLLKPESELSPSWIYNLPGMQQNKFVPSSRLSEDQEDCILYSSWLAEKHTNLVPHGTEKDVYRYVEDMGLTAFTNLMIKLPIICFDYGMVPISAPRVEFDLAFTPEISWSLRTTLSKRPEEPPRKDPSSNDPLTETIRKYFPETWVWDIVTVNSTGLAEVEMTVPDTITEWKAGALCLSNDTGLGLSSVVPLQAFKPFFVEVSLPYSVVRGEAFMLKATVMNYLPTSMQMSVQLEASPDFTAVPVGDDQDSYCLSANGRHTSSWLVTPKSLGNVNFSVSAEAQQSSEPCGSEVATVPETGRKDTVVKVLIVEPEGIKQEHTFSSLFCASDAEISEKMSLVLPPTVVKDSARAHFSVMGDILSSAIRNTQNLLHMPYGCGEQNMVLFAPNIYVLKYLNETQQLTQKIKTKALGFLRAGYQRELNYKHKDGSYSAFGDQNGEREGNTWLTAFVLKSFAQARAFIFIDESHITHAFTWLSQKQKDNGCFRSSGSLFNNAMKGGVDDEMTLSAYITMALLESSLPATHPVVSKALSCLESSWKTIEQERNASFVYTKALMAYAFALAGNQNKRDEILKSLDEEAIKENNSIHWKRPQKSRKSEHHLYKPQASSAEVEMNAYVVLARLTAQPAPSPEDLTLSMSTIMWLTKQQNSNGGFSSTQDTVVALDALSKYGAVTFSRSQKTTLVTIQSTGSFSQKFQVENSNRLLLQQVALPDIPGDYTISVSGEGCVYAQTMLRYNMHLEKQLSAFAIWVQTVPLTCNNPKGHNSFQISLEISYTGSRPASNMVIADVKMLSGFIPLKPTVKKLERLEHVSRTEVSNNNVLIYLDQVTNQTLAFSFIIQQDIPVRNLQPAIVKVYDYYETDEMAFAEYSSPCSTDKQNV
B6: Alpha-1-acid glycoprotein 1 (protein, UniProt Q60590 19-207, looked up)
Alpha-1-acid glycoprotein 1: QNPEHANFTIGEPITNETLSWLSDKWFFMGAAFRKLEYRQAIQTMQSEFFYLTTNLINDTIELRESQTIGDQCVYNSTHLGFQRENGTFSKYEGGVETFAHLIVLRKHGAFMLAFDLKDEKKRGLSLYAKRPDITPELREVFQKAVTHVGMDESEIIFVDWKKDRCGQQEKKQLELGKETKKDPEEGQA
B7: Serum paraoxonase/arylesterase 1 (protein, UniProt P52430 1-355, looked up)
Serum …: MAKLLALTLVGLVLALYKNHRSSYQTRLNAFREVTPVELPNCNLVKGIETGAEDLEILPNGLTFFSTGLKYPGIKSFDPSKPGKILLMDLNKKEPAVSELEIIGNTLDISSFNPHGISTFTDEDNTVYLLVVNHPDSSSTVEVFKFQEEERSLLHLKTITHELLPSINDIAAIGPESFYATNDHYFADPYLRSWEMYLGLSWSNVVYYSPDKVQVVAEGFDFANGIGISLDGKYVYIAELLAHKIHVYEKHANWTLTPLKVLNFDTLVDNISVDPVTGDLWVGCHPNGMRIFFYDAENPPGSEVLRIQNILSEDPKITVVYAENGTVLQGTTVASVYKGKLLIGTVFHKALYCDL
B8: Keratin, type II cytoskeletal 5 (protein, UniProt Q922U2 1-580, looked up)
Keratin, type II cytoskeletal …: MSRQSSVSFRSGGSRSFSAASAITPSVSRTSFSSVSRSGGGGGGRISLGGACGAGGYGSRSLYNVGGSKRISYSSGGGSFRNQFGAGGFGFGGGAGSGFGFGGGAGSGFGFGGGAGFGGGYGGAGFPVCPPGGIQEVTVNQNLLTPLNLQIDPTIQRVRTEEREQIKTLNNKFASFIDKVRFLEQQNKVLDTKWALLQEQGTKTIKQNLDPLFEQYINNLRRQLDGVLGERGRLDSELRNMQDLVEDYKNKYEDEINKRTTAENEFVMLKKDVDAAYMNKVELEARVDALMDEINFMKMFFDAELSQMQTHVSDTSVVLSMDNNRSLDLDSIIAEVKAQYEDIANRSRTEAESWYQTKYEELQQTAGRHGDDLRNTKHEISEMNRMIQRLRSEIDNVKKQCANLQNAIAEAEQRGELALKDARNKLTELEEALQKAKQDMARLLREYQELMNTKLALDVEIATYRKLLEGEECRLSGEGVGPVNISVVTNSVSSGYGGGSSIGVGSGFGGGLGSGFAGGLGPRFTRGGGGLGLGSGLSVGGSGFSAGSSQGGMSFGSGGGSGSSVKFVSTTSSSRRSFKS
B9: Complement component C8 beta chain (protein, UniProt Q8BH35 54-589, looked up)
Complement component C8 beta …: SVAEAPAPIDCELSTWSSWTACDPCQKKRYRHTYLLRPSQFYGELCDLSDKEVEDCVTNQPCRSQVRCEGFVCAQTGRCVNRRLLCNGDNDCGDQSDEANCRRIYKNCQREMEQYWAIDRLASGINLFTNTFEGPVLDHRYYAGGCSPHYILDTNFRKPYNVESYTPQTKCEYEFTLTEYESYSDFERLVIEKKTHMFNFTSGFKVDGVMDLGIKVESNEGKNYVTRTKRFAHTQSKFLHARSVLEVAHYKLKSRSLMLHYEFLQRVKSLPLEYSYGEYRDLLRDFGTHFITEAVLGGIYEYTLIMNKDAMEQGDYTLSHVTACAGGSFGIGGMVYKVYVKVGVSAKKCSDIMKEINERNKRSTMVEDLVVLVRGGTSEDITALAYKELPTPELMEAWGDAVKYNPAIIKIKAEPLYELVTATDFAYSSTVKQNLKKALEEFQSEVSSCRCAPCRGNGVPVLKGSRCECICPGGFQGTACEVTYRKDIPIDGKWSCWSDWSACSGGHKTRHRQCNNPAPHKGGSPCSGPASETLNC
B10: Vitamin K-dependent protein Z (protein, UniProt Q9CQW3 41-399, looked up)
Vitamin K-dependent protein Z: GSSYFLEEIFQGNLEKECYEEVCNYEEAREVFENDVITDEFWRQYGGGSPCVSQPCLNNGTCEDHIRSYSCTCSPGYEGKTCAMAKNECHLERTDGCQHFCHPGQSSYMCSCAKGYKLGKDQKSCGPSDKCACGALTSEHIRMTKSSQSQPSFPWQVRLTNSEGEDFCAGVLLQEDFVLTTAKCSLLHSNISVKANVDQRIRIKSTHVHMRYDEESGENDVSLLQLEEPLQCPSSGLPVCVPERDFAEHVLIPGTEGLLSGWMLNGTHLATTPMLLSVTQADGEECGQTLNVTVTTRTSCEKGSVVMGPWVEGSVVTREHKGTWFLTGILGSPPPPGQSQMLLLTAVPRYSMWFKQIMK

For the first data set, the system named is coronal proteins on NPs. Further details: species or system mouse. As to conditions: HBPE-NPs incubated 1 h with IAV day 5 (V5) mouse sera, 20:1 NP:sera, centrifuged and washed.
In the case of B1, the “V5 Sera_Nanoparticles Quantitative Value (Normalized Total Spectra)” value is given as 4.3517.

On to B2, for which the “V5 Sera_Nanoparticles Quantitative Value (Normalized Total Spectra)” value stood at 5.4396.

For the molecule B3, the “V5 Sera_Nanoparticles Quantitative Value (Normalized Total Spectra)” value is 87.034.

For B4, the “V5 Sera_Nanoparticles Quantitative Value (Normalized Total Spectra)” value was 5.4396.

As to B5, the “V5 Sera_Nanoparticles Quantitative Value (Normalized Total Spectra)” value was 63.099.

As to B6, the “V5 Sera_Nanoparticles Quantitative Value (Normalized Total Spectra)” value is 5.4396.

As for B7, the “V5 Sera_Nanoparticles Quantitative Value (Normalized Total Spectra)” value is reported as 4.3517.

Turning to B8, the “V5 Sera_Nanoparticles Quantitative Value (Normalized Total Spectra)” value is 5.4396.

For the molecule B9, the “V5 Sera_Nanoparticles Quantitative Value (Normalized Total Spectra)” value came out at 5.4396.

As to B10, the “V5 Sera_Nanoparticles Quantitative Value (Normalized Total Spectra)” value amounted to 5.4396.

Still in this data set, the particulars now being: IAV day 5 (V5) mouse sera alone, no NPs (sera-only control).
Take B1: the “V5 Sera Alone (Control) Quantitative Value (Normalized Total Spectra)” value (shortened to “V5 Sera Alone … (Normalized Total Spectra)”) is on record as 26.832.

Consider B2, for which the “V5 Sera Alone … (Normalized Total Spectra)” value was found to be 15.729.

Take B3: the “V5 Sera Alone … (Normalized Total Spectra)” value is reported as 45.336.

B4: the “V5 Sera Alone … (Normalized Total Spectra)” value is recorded as 12.028.

For the molecule B5, the “V5 Sera Alone … (Normalized Total Spectra)” value is 61.99.

B6: the “V5 Sera Alone … (Normalized Total Spectra)” value is given as 3.7009.

Turning to B7, the “V5 Sera Alone … (Normalized Total Spectra)” value is reported as 15.729.

Regarding B8, the “V5 Sera Alone … (Normalized Total Spectra)” value was 10.178.

Consider B9, for which the “V5 Sera Alone … (Normalized Total Spectra)” value was found to be 4.6261.

Regarding B10, the “V5 Sera Alone … (Normalized Total Spectra)” value was determined as 0.9252.
